# Data as given in PubChem BioAssay AID504761 (Drosophila RNAi Screening Center, 2011)
# Screen: 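Genome-wide fly cell screen for genes dengue virus requires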 (primary screen)
# Cell system: D.Mel-2 cells from Drosophila
# Reagent: long dsRNA against Drosophila genes
# Challenge: infection with dengue virus type 2; dose and infection time not stated
# Read-out: 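Per well on two replicate plates, imaging gave the percent of cells positive for viral envelope protein, ranked by infection, and a nuclear count of cells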
# Reading the numbers: infection score: higher = more virus-infected cells; cell count: higher = more cells in the well
# Active means: 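Low infection ranks in the two replicates (chance level up to 0.065) followed by a retest with a 1.5-fold or larger significant decrease, p below 0.05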
# Calls: active = confirmed: knock-down lowers infection; inactive = not picked or not confirmed
# In all, the deposit lists about 22,000 reagents; below is a random part of those that have a named target and a result. Of all reagents, 116 (0.52%) were called active. 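Calls depend on retest data that are not deposited; infection was ranked per plate without normalising between plates; the unit of the infection score is not given.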 Raw values vary from plate to plate and are shown uncorrected. Unmarked entries are inactive. Names joined by + are all predicted targets of the reagent. Not all columns of the deposit are shown. Not given: the amount of reagent, the time to read-out.
Target gene,PubChem SID,"infection score, replicate 1","infection score, replicate 2","cell count, replicate 1"
Clk,SID104190909,3.79,10.7,6383
CG14259,SID104194546,2.26,5.19,6600
CG30016,SID104185034,5.88,0.91,5659
CG5157,SID104190280,1.36,3,6083
CG5157,SID104206018,40.9,25.2,5185
alpha-Est7,SID104192411,0.91,1.01,7062
alpha-Est7,SID104206083,2.84,9.67,6766
CG12857,SID104185989,11.8,14.1,6297
CG12963,SID104186057,12.2,7.19,6753
CG17380,SID104195022,4.66,3.56,7023
Prosalpha6,SID104183193,1.89,0.55,1537
Alp4,SID104193908,9.82,4.02,5660
AlaRS-m,SID104189452,10.2,4.12,6491
AlaRS-m,SID104206794,2.44,18.2,532
CR33294,SID104202307,0.66,2.34,6544
CG8997,SID104181692,10.6,3.17,4781
CG8997,SID104206546,13.4,2.95,3150
Ocrl,SID104198368,3.69,2.49,6257
POSH,SID104187291,8.65,19,6025
tor,SID104187499,4.02,7.19,6564
CG7164,SID104182810,3.91,5.21,6552
CG7164,SID104207248,13.7,4.39,3650

An excerpt taken from the entries so far:
Target gene,PubChem SID,"infection score, replicate 1","infection score, replicate 2","cell count, replicate 1"
CG5157,SID104206018,40.9,25.2,5185
alpha-Est7,SID104192411,0.91,1.01,7062
alpha-Est7,SID104206083,2.84,9.67,6766
CG12857,SID104185989,11.8,14.1,6297
CG12963,SID104186057,12.2,7.19,6753
CG17380,SID104195022,4.66,3.56,7023
Prosalpha6,SID104183193,1.89,0.55,1537

More results follow.
Target gene,PubChem SID,"infection score, replicate 1","infection score, replicate 2","cell count, replicate 1"
Pex12,SID104180414,4.66,1.3,6348
Pex12,SID104205693,3.46,11,6191
Tpi,SID104196680,16.4,27.5,6534
naz,SID104194582,1.73,2.44,6286
naz,SID104195991,2.26,0.59,6905
CG18469,SID104201486,3.73,17,6436
Ptpa,SID104180568,4.5,2.61,5884
Ptpa,SID104207291,8.81,,1827
SMC3,SID104200019,15.1,0.77,5001
Alp13,SID104195573,4.55,22.3,6600
cyr,SID104197809,4.81,26.9,499
cyr,SID104197810,5.35,9.43,5834
Ugt37C1,SID104187208,12.2,13.6,6549
Ugt37C1,SID104203015,3.77,5.99,6014
Ndf,SID104182567,11.3,13.2,6278
CG15432,SID104180239,15.1,11,6153
CG15432,SID104202824,2.18,2.69,6366
RacGAP84C,SID104192422,3.67,22.9,6591
Hil,SID104185781,1.55,11.2,6514
Hil,SID104186187,2.99,1.63,5978
SelT,SID104182524,2.8,4.25,5813
SelT,SID104204577,23.8,3.61,5645
CG34148 + P5CDh2,SID104193311,0.59,1.45,6278
eIF2Bbeta,SID104198257,11.8,16.5,5030
eIF2Bbeta,SID104207039,11.8,8.9,4720
Or47a,SID104187283,9.89,7.19,6100
CG14636,SID104192015,6.89,7.54,6576
CG14636,SID104207122,,,396
Ir100a,SID104194121,1.4,0.77,5805
Ir100a,SID104204425,2.13,2.19,6286
Sec24AB,SID104186270,16.6,16.3,4849
Sec24AB,SID104204484,5,10.2,6479
Gprk1,SID104200524,,0.29,6306
Gprk1,SID104200708,3.39,3.56,6836
RIOK1,SID104189645,5.49,5.09,6378
U4-U6-60K,SID104190416,14.5,12.5,1831
